Protein sequences, listed by entry. Tags and fused reporters are not part of them. Residues count along the entry.
UniProt P0DPI1, 2-448 limits assumed: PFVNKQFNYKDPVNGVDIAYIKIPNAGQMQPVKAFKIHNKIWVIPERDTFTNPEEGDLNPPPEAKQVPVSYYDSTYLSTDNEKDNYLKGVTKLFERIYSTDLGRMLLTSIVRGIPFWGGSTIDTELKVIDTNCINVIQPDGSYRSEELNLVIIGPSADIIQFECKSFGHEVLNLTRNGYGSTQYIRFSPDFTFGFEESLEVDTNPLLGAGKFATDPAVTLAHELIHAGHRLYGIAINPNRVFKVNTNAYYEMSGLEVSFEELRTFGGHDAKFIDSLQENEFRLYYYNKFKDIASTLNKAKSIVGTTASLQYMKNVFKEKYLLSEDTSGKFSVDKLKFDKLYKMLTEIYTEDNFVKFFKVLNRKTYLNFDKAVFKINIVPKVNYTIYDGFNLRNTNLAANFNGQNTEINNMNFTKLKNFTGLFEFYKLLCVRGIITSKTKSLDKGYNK

In BindingDB's records for doi:10.7270/Q29Z93G0 (Nmmlsc, 2012):

Biological target: Botulinum neurotoxin type A (Clostridium botulinum (strain Hall / ATCC 3502 / NCTC 13319 / Type A), UniProt P0DPI1)

Question: How did the EC50 turn out when `Fc1ccccc1C1CC(c2ccccc2)=NN1c1ccccc1` (stereo unspecified) [VU0467047-1] was run?
Answer: Its EC50 is over 20 µM.
